# Kdimer by position in the HIV-1 leader RNA

Reference: Ye et al. 2022, doi:10.1038/s41594-022-00746-2.

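Mutant RNA libraries with 1G, 2G or 3G starts, with or without cap, were folded at 37 °C for 30 min. High salt was 300 mM KCl and 5 mM MgCl2, low salt 40 mM KCl and 0.1 mM MgCl2; monomer and dimer were parted on a native gel. Kdimer compares mutation frequencies in monomer and dimer, corrected for sequencing errors.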

RNA: 5' end of the HIV-1 NL4-3 genome, made in vitro. Positions 1-437 read:
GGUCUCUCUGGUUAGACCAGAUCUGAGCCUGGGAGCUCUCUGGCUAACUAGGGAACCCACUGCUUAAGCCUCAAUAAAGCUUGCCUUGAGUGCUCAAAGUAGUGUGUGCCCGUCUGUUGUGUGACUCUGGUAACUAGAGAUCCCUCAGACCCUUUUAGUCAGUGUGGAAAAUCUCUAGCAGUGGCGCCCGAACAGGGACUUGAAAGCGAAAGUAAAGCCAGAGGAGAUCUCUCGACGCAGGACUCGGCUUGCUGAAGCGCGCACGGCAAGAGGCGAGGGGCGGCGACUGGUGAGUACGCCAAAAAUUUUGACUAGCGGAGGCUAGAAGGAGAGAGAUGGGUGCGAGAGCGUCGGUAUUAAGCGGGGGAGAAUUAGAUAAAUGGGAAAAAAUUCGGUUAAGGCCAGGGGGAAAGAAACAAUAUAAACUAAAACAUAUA

Values are log2 Kdimer, the median over the changes at each position: higher means that changes there hinder dimer formation, below 0 that they favour it.
One numbering serves 1G, 2G and 3G.
A position is written with its base.

position	2G uncapped high-salt	2G uncapped low-salt	3G capped high-salt	3G capped low-salt
C160	0.03	-0.24	-0.30	-0.36
A161	0.07	-0.05	0.07	0.10
G162	0.23	-0.45	0.03	-0.45
U163	0.12	0.07	0.05	0.03
G164	0.12	0.15	-0.10	0.09
U165	-0.05	-0.01	0.08	0.14
G166	0.19	0.10	-0.11	-0.07
G167	0.26	0.32	-0.02	0.17
A168	0.14	0.39	0.06	0.24
A169	0.03	0.05	0.05	0.00
A170	0.14	0.07	0.09	0.00
A171	0.10	0.29	0.07	0.12
U172	0.17	0.38	-0.03	0.48
C173	-0.05	-0.41	-0.25	-0.38
U174	-0.21	-0.56	-0.47	-0.55
C175	0.12	-0.25	-0.21	-0.36
U176	0.16	-0.27	-0.12	-0.24
A177	0.24	-0.54	-0.08	-0.71
G178	0.35	0.21	0.21	0.72
C179	0.02	-0.27	-0.37	-0.27
A180	0.11	-0.12	-0.11	-0.24
G181	0.00	-0.64	-0.25	-0.71
U182	0.01	-0.09	0.29	0.72
G183	0.23	0.22	-0.12	-0.12
G184	0.22	0.46	0.07	0.79

The last 3 entries again:

{"position": "U182", "2G uncapped high-salt": 0.01, "2G uncapped low-salt": -0.09, "3G capped high-salt": 0.29, "3G capped low-salt": 0.72}
{"position": "G183", "2G uncapped high-salt": 0.23, "2G uncapped low-salt": 0.22, "3G capped high-salt": -0.12, "3G capped low-salt": -0.12}
{"position": "G184", "2G uncapped high-salt": 0.22, "2G uncapped low-salt": 0.46, "3G capped high-salt": 0.07, "3G capped low-salt": 0.79}